Measured values from several laboratories, pooled; numbers as filed in NIAID ChemDB.

All rows: whole-cell or culture tests; agent: Bovine viral diarrhea virus

ECn is the concentration giving n% inhibition of infection, replication or growth. Blank or dashed fields: not listed here. Rows are shuffled and stem from different studies. Inhibition is in % at the dose shown (toxicity tests: loss of growth or viability).

smiles	dose	read by	cells	strain	measure	value
NCCCC[C@H](N)C(=O)Nc1cccc(-c2ccc(NC(=O)Nc3nc4ccccc4s3)nc2)c1		plaque count	MDBK	NADL	EC50	0.6 µM
N#Cc1ccc(Cn2ccc3nc(-c4ccccc4)nc-3c2)cc1		cytopathic effect	MDBK	PE515	EC50	0.022 µg/mL
N=C(N)c1ccc(-c2ccc(-c3nc4ccc(C(=N)N)cc4[nH]3)o2)cc1	25 µM		MDBK		inhibition	90%
O=c1nc(NO)ccn1[C@@H]1O[C@H](CO)[C@@H](O)[C@H]1O	5.4 µM		MDCK		inhibition	90%
C=CCNC(=S)N=Nc1c(O)n(CN2CCCCC2)c2ccc([N+](=O)[O-])cc12		cytopathic effect	MDBK		EC50	>16 µg/mL
CC(c1ccccc1)n1ccc2nc(-c3ccccc3)nc-2c1		cytopathic effect	MDBK	PE515	EC50	0.325 µg/mL
O=c1ccn([C@@H]2O[C@H](CO)[C@](O)(C(F)(F)F)[C@H]2O)c(=O)[nH]1					EC50	≥100 µM
O=c1ccn([C@@H]2O[C@H](CO)[C@@H](O)[C@H]2F)c(=O)[nH]1		replicon	MDBK		EC90	>100 µM
CO/N=C(/N)c1ccc(-c2ccc(-c3ccc(/C(N)=N\OC)cc3)o2)cc1	25 µM		MDBK		inhibition	0%
Nc1ccn([C@@H]2O[C@H](CO)[C@@H](O)[C@H]2F)c(=O)n1		PCR	MDBK		EC90	>100 µM
CNC(=S)N=Nc1c(O)n(CN2CCOCC2)c2ccc([N+](=O)[O-])cc12		cytopathic effect	MDBK		EC50	>20 µg/mL
Nc1nc2c(ncn2[C@@H]2O[C@H](CO)C(O)(C(F)(F)F)[C@H]2O)c(=O)[nH]1					EC50	≥100 µM
Brc1ccc(Cn2ccc3nc(-c4ccccc4Br)nc-3c2)cc1		cytopathic effect	MDBK	PE515	EC50	0.026 µg/mL
Nc1ccn([C@@H]2O[C@H](CO)[C@@H](O)[C@H]2F)c(=O)n1			MDBK	NADL	EC90	>100 µM
CN1C(=O)CS/C1=N/N=C1\C(=O)Nc2ccc([N+](=O)[O-])cc21		cytopathic effect	MDBK		EC50	50 µg/mL
Brc1ccc(Cn2ccc3nc(-c4ccccc4)nc-3c2)cc1		ELISA	MDBK	3435 (TYPE 2)	EC50	0.2 µM
O=[N+]([O-])c1ccc2[nH]c(O)c(N=NC(=S)NC3CCCCC3)c2c1		cytopathic effect	MDBK		EC50	>5 µg/mL
COc1cccc(-c2nc3ccn(Cc4ccc(Br)cc4)cc-3n2)c1		cytopathic effect	MDBK	PE515	EC50	0.052 µg/mL
Cc1c(-c2ccc(C(=N)N)cc2)oc(-c2ccc(C(=N)N)cc2)c1C	5 µM		MDBK		inhibition	69%
CCCCNC(=S)N=Nc1c(O)[nH]c2ccc([N+](=O)[O-])cc12		cytopathic effect	MDBK		EC50	>50 µg/mL

For reference, 2 entries again:

smiles	dose	read by	cells	strain	measure	value
Nc1nc2c(ncn2[C@@H]2O[C@H](CO)C(O)(C(F)(F)F)[C@H]2O)c(=O)[nH]1					EC50	≥100 µM
CO/N=C(/N)c1ccc(-c2ccc(-c3ccc(/C(N)=N\OC)cc3)o2)cc1	25 µM		MDBK		inhibition	0%